The record followed here is patent US20080076824A1, “Compounds That Inhibit Replication Of Human Immunodeficiency Virus” (priority 2004, published 2008).

The experiment has as its system HIV-1 (IIIB). The following applies: read-out: EC50 against HIV-1(IIIB); CEM cell cultures, Table 2.

A word on the EC50: it is the concentration that produces a half-maximal response. `C[C@H](N)C(=O)N1CCC[C@H]1C(=O)NCC(=O)N[C@@H](Cc1c[nH]c2ccccc12)C(N)=O` [Ala-Pro-Gly-Trp-amide, reference compound]: the EC50 is over 500 µM.
